This is a selection; strong and weak results do not stand in their true shares. Calls of active or inactive are those of the source.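 How the source made its calls: active means top-ranked compounds by inhibition in the single 10 µM screen, taking a fixed number of the strongest; inactive means the rest, inconclusive results apart.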
What follows are compounds tested on phosphomevalonate kinase (Streptococcus pneumoniae D39) (assay: phosphomevalonate kinase enzyme inhibition – biochemical, mevalonate pathway, pilot trial included, primary screen (AID 539;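 further: 0% = full reaction with DMSO carrier and 100% = background rate without enzyme reaction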)). Settings: purified PMK, PK/LDH-coupled NADH absorbance 340 nm; at 10 µM; active compounds read high.

SMILES | inhibition
N#CC1(Nc2ccccc2)CCN(CCc2ccccc2)CC1 | inactive: 3%
O=C(OC1CN2CCC1CC2)C1c2ccccc2Oc2ccccc21 (configuration not stated) | inactive: 11%
COc1ccc(NC2CCN(CCc3ccccc3)CC2)c(OC)c1 | inactive: 2%
Fc1ccccc1NC1CCN(Cc2ccccc2)CC1 | inactive: 15%
CCC(CO)(C(=O)OC1CN2CCC1CC2)c1ccccc1 (configuration not stated) | inactive: 17%
CCOc1ncccc1C(=O)NCC1(N2CCOCC2)CCCCC1 | inactive: 19%
N/C(=N\O)c1c(N)no[n+]1[O-] | inactive: 13%
